From article PMC5158307, “Substrate specificity characterization for eight putative nudix hydrolases. Evaluation of criteria for substrate identification within the Nudix family” (Proteins, 2016)

Assays:
Experiment in all cases: purified protein
Conditions in all cases: pH 7.6; 37.0 °C
[1] = test system: Nc1ncnc2c1[nH]c(=O)n2[C@H]1C[C@H](O)[C@@H](COP(=O)(O)OP(=O)(O)OP(=O)(O)O)O1
[2] = test system: Nc1nc2c(ncn2[C@H]2C[C@H](O)[C@@H](COP(=O)(O)OP(=O)(O)OP(=O)(O)O)O2)c(=O)[nH]1
[3] = test system: Nc1nc2c([nH]c(=O)n2[C@H]2C[C@H](O)[C@@H](COP(=O)(O)OP(=O)(O)OP(=O)(O)O)O2)c(=O)[nH]1
[4] = test system: Nc1nc2c([nH]c(=O)n2[C@@H]2O[C@H](CO[P@@](=O)(O)O[P@@](=O)(O)OP(=O)(O)O)[C@@H](O)[C@H]2O)c(=O)[nH]1
[5] = test system: Nc1nc2c(ncn2[C@@H]2O[C@H](COP(=O)(O)OP(=O)(O)OP(=O)(O)O)[C@@H](O)[C@H]2O)c(=O)[nH]1

## Q0TTC5_CLOP1 (Clostridium perfringens ATCC 13124)
[1]
  Km: 0.93 ± 0.26 µM
  kcat/Km: 2.8e+06 M⁻¹ s⁻¹
[2]
  Km: 38 ± 12 µM
  kcat/Km: 180000 M⁻¹ s⁻¹
[3]
  Km: 1.4 ± 0.3 µM
  kcat/Km: 430000 M⁻¹ s⁻¹
[4]
  Km: 2.2 ± 0.4 µM
  kcat/Km: 1.2e+06 M⁻¹ s⁻¹

## Q0TS82_CLOP1 (Clostridium perfringens ATCC 13124)
[5]
  Km: 59 ± 6 µM
  kcat/Km: 4400 ± 100 M⁻¹ s⁻¹
